The values that follow come from publication PMC3116866.

Protein sequences, listed by entry. Tags and fused reporters are not part of them. Lines headed by an entry give the natural chain unless they say otherwise; changes in a name come on top.
UniProt P9WGL9: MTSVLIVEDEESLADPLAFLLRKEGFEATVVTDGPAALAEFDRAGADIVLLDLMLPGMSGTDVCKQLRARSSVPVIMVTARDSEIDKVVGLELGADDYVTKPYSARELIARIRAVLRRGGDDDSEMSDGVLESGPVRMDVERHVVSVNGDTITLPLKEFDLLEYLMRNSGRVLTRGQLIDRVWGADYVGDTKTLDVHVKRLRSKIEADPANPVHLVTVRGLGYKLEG

Construct, isoform or probe ends are uncertain for at least one entry.

The target of the data set is RegX3~P (phosphorylated by EnvZ) (Mycobacterium tuberculosis) (UniProt P9WGL9). Kind of data set: EMSA. As to conditions: recombinant protein; residues 1-227; protein details: His tag (pET19b, Ni-NTA); label: FITC; probe letters rebuilt from the primers and the genome; part of a longer molecule.
As to “ACGAGATCGGTAGCCCTCTAGTTCCTCGGTGGCGGCGCGCAACCGGCGGTGCACGGCAACCAGGCTGTGGCCGACCTCGGGCATCCGGGCGACGAATTCTTCGATCTGGGCGCCGCTGACCGCGTGCTCGACGCCGATGTCGGTGAAGACGTCGGACAGGTCGGCCACCAACCGTGCGTCGGAATCCGAGGAGAAATACTGCGCCGACAGGTCAAACCGCTCGGTAAGCAGAAGCAGCACGGGCACGGTGATGGGCCGCTGGTCATTCTCCAACTGGTTGACATAGCTTGTGGATAAGTCCAGGGCCTTGGCCAGCGCCACCTGGGTGAGCCCGCGCTCTTGACGTAACCGCCGCAGGCGGGCACCGGAAAACGTCCTCGAATACGTCCTAGCCACCGGTAAGACATTACTCCGCGTCATGTTCGCAAAATTTGCAAAATGTGCCGGATCAGGACACAAAAGTACGCTTTTTCAGGGTCTTTTGTTGGTGTCCTGTGCTGC (double strand) [PgltA1]”, the binding result was “binds”. As for “GACGGTGGTGATACCGAACTGCCACCGCGAAATGTCGACGACATTCATCTGTCATCTCCGGAGATACTACGGGGCCGACTGATTTGGCTACGACGAAGTGTAGTAGGCACGAGTGGGCCCGCGCTACTGGCAATCGTGGGTGCACCGCGATTCTGCGGTCAGCCGAGCGTCTGCGAAGCCTTGCGGATGGCGAACGACGACGCGATCTCGCATGTGCCGATCACCACGAGCCAGAT (double strand) [PcydAB (PcydB)]”, the entry is “binds”; as for “GGTGATAGCCGAGCCCTCTCCGGCACCTGCCTGGATGAGCACCTCATGGCCACGACGGGTTAGTTCCGCGACGCCGGCCGGGGTGATGGCCACCCGGAATTCGTTGTTTTTGGTCTCGGTCGGAATACCGACGCGCATGATTACCCCTCTCGATACTGTACGCTTCAGTATGAAGAAAGTTCGATTAATCTGCAAGATTGCTGATGATAATTCTTTTTCGAGGCCATATGC (double strand) [Pald]”, “binds”.
